Data on one protein can be found in article PMC5920107, “Self-homodimerization of an actinoporin by disulfide bridging reveals implications for their structure and pore formation” (2018).

The target of this series is P81662. To be noted: AUC.

B1: sticholysin I Trp111 to Cys mutant (StI W111C) (protein)
chain: SELAGTIIDGASLTFQVLDKVLGELGKVSRKIAVGIDNESGGTWTALNAYFRSGTTDVILPEVVPNTKALLYSGRKSSGPVATGAVAAFAYYMSNGNTLGVMFSVPFDYNCYSNWWDVKIYPGKRRADQGMYEDMYYGNPYRGDNGWYQKNLGYGLRMKGIMTSAGEAKMQIKISR
On to B1, for which the peaks integration (%), monomer peak was 8%.
